{"source": "PubChem BioAssay AID1259414 – Drosophila RNAi Screening Center – 2018", "purpose": "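Host factors increasing or decreasing Wolbachia levels in cultured fly cells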 (primary screen)", "system": "Drosophila JW18 cells infected with Wolbachia", "reagent": "long dsRNA against Drosophila genes, 0.25 µg dsRNA per well of a 384-well plate", "timing": "5 days", "treatment": "cells persistently infected with Wolbachia before knock-down; no added drug", "measurement": "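Imaged fluorescence in situ signal for Wolbachia 23S rRNA per DAPI-counted host cell, given as a robust z-score within each plate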", "scale": "Wolbachia per cell robust z: higher = more Wolbachia per host cell than the plate typical", "call rule": "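Hit when robust z is 1.5 or more, or -1.5 or less, in at least two of three replicates; excludes dsRNAs with several or no targets, genes not expressed in JW18 and well A1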", "note": "The deposit covers about 24,000 reagents; this is an unselected part of those with a known target gene and a result. Of all reagents, about 1,210 (5%) are marked active. 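Inactive calls also include excluded dsRNAs with several or no targets, genes unexpressed in JW18, and well A1, regardless of score.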 Unmarked entries are inactive. Reagents against one gene are numbered here. Reagent sequences are not shown."}
{"Gene": "Lmx1a", "dsRNA no.": 1, "Wolbachia per cell robust z, rep 1": -0.00336, "Wolbachia per cell robust z, rep 2": -0.077, "Wolbachia per cell robust z, rep 3": 0.596}
{"Gene": "Lmx1a", "dsRNA no.": 2, "Wolbachia per cell robust z, rep 1": 0.633, "Wolbachia per cell robust z, rep 2": -0.0135, "Wolbachia per cell robust z, rep 3": -0.392}
{"Gene": "CG6059", "dsRNA no.": 1, "Wolbachia per cell robust z, rep 1": -0.341, "Wolbachia per cell robust z, rep 2": -0.0349, "Wolbachia per cell robust z, rep 3": 0.198}
{"Gene": "mats", "dsRNA no.": 1, "Wolbachia per cell robust z, rep 1": -0.00271, "Wolbachia per cell robust z, rep 2": -0.542, "Wolbachia per cell robust z, rep 3": 0.701}
{"Gene": "mats", "dsRNA no.": 2, "Wolbachia per cell robust z, rep 1": -0.00346, "Wolbachia per cell robust z, rep 2": -2.55, "Wolbachia per cell robust z, rep 3": -0.679}
{"Gene": "Zip99C", "dsRNA no.": 1, "Wolbachia per cell robust z, rep 1": -0.156, "Wolbachia per cell robust z, rep 2": -0.21, "Wolbachia per cell robust z, rep 3": -1.5}
{"Gene": "CG1850", "dsRNA no.": 1, "Wolbachia per cell robust z, rep 1": -1.21, "Wolbachia per cell robust z, rep 2": 0.321, "Wolbachia per cell robust z, rep 3": -1.25}
{"Gene": "mthl1", "dsRNA no.": 1, "Wolbachia per cell robust z, rep 1": 0.756, "Wolbachia per cell robust z, rep 2": 0.825, "Wolbachia per cell robust z, rep 3": 0.38}
{"Gene": "CAH7", "dsRNA no.": 1, "Wolbachia per cell robust z, rep 1": 0.609, "Wolbachia per cell robust z, rep 2": -0.637, "Wolbachia per cell robust z, rep 3": 0.201}
{"Gene": "jef", "dsRNA no.": 1, "Wolbachia per cell robust z, rep 1": -0.00177, "Wolbachia per cell robust z, rep 2": 0.207, "Wolbachia per cell robust z, rep 3": -3.43}
{"Gene": "jef", "dsRNA no.": 2, "Wolbachia per cell robust z, rep 1": -5.51, "Wolbachia per cell robust z, rep 2": -0.932, "Wolbachia per cell robust z, rep 3": -1.33}
{"Gene": "Sec61gamma", "dsRNA no.": 1, "Wolbachia per cell robust z, rep 1": 0.897, "Wolbachia per cell robust z, rep 2": 0.855, "Wolbachia per cell robust z, rep 3": 0.551}
{"Gene": "Sec61gamma", "dsRNA no.": 2, "Wolbachia per cell robust z, rep 1": -4.32, "Wolbachia per cell robust z, rep 2": 1.48, "Wolbachia per cell robust z, rep 3": 0.335}
{"Gene": "CR31822", "dsRNA no.": 1, "Wolbachia per cell robust z, rep 1": 0.81, "Wolbachia per cell robust z, rep 2": -0.0821, "Wolbachia per cell robust z, rep 3": -0.584}
{"Gene": "CG31007", "dsRNA no.": 1, "Wolbachia per cell robust z, rep 1": -1.07, "Wolbachia per cell robust z, rep 2": -0.86, "Wolbachia per cell robust z, rep 3": 0.491}
{"Gene": "CG31007", "dsRNA no.": 2, "Wolbachia per cell robust z, rep 1": -0.183, "Wolbachia per cell robust z, rep 2": -1.46, "Wolbachia per cell robust z, rep 3": -0.0231}
{"Gene": "wg", "dsRNA no.": 1, "Wolbachia per cell robust z, rep 1": -1.04, "Wolbachia per cell robust z, rep 2": -0.142, "Wolbachia per cell robust z, rep 3": 0.172}
{"Gene": "wg", "dsRNA no.": 2, "Wolbachia per cell robust z, rep 1": 0.00947, "Wolbachia per cell robust z, rep 2": 0.349, "Wolbachia per cell robust z, rep 3": -7.72}
{"Gene": "CG31460", "dsRNA no.": 1, "Wolbachia per cell robust z, rep 1": 1.11, "Wolbachia per cell robust z, rep 2": 1.1, "Wolbachia per cell robust z, rep 3": -0.000324}
{"Gene": "betaTub97EF", "dsRNA no.": 1, "Wolbachia per cell robust z, rep 1": 0.489, "Wolbachia per cell robust z, rep 2": 0.324, "Wolbachia per cell robust z, rep 3": -4.63}
{"Gene": "betaTub97EF", "dsRNA no.": 2, "Wolbachia per cell robust z, rep 1": 0.78, "Wolbachia per cell robust z, rep 2": -3.61, "Wolbachia per cell robust z, rep 3": 0.531}
{"Gene": "betaTub97EF", "dsRNA no.": 3, "Wolbachia per cell robust z, rep 1": -0.321, "Wolbachia per cell robust z, rep 2": 0.418, "Wolbachia per cell robust z, rep 3": -0.199}
{"Gene": "dUTPase", "dsRNA no.": 1, "Wolbachia per cell robust z, rep 1": 0.285, "Wolbachia per cell robust z, rep 2": -1.63, "Wolbachia per cell robust z, rep 3": -0.994}
{"Gene": "dUTPase", "dsRNA no.": 2, "Wolbachia per cell robust z, rep 1": 1.08, "Wolbachia per cell robust z, rep 2": 0.668, "Wolbachia per cell robust z, rep 3": 1.25}
{"Gene": "CG2841", "dsRNA no.": 1, "Wolbachia per cell robust z, rep 1": -0.216, "Wolbachia per cell robust z, rep 2": 0.442, "Wolbachia per cell robust z, rep 3": 0.622}
{"Gene": "CG2841", "dsRNA no.": 2, "Wolbachia per cell robust z, rep 1": 1.02, "Wolbachia per cell robust z, rep 2": 0.228, "Wolbachia per cell robust z, rep 3": 1.36}
{"Gene": "CG5693", "dsRNA no.": 1, "Wolbachia per cell robust z, rep 1": 0.0695, "Wolbachia per cell robust z, rep 2": 0.334, "Wolbachia per cell robust z, rep 3": 2.4}
{"Gene": "Ublcp1", "dsRNA no.": 1, "Wolbachia per cell robust z, rep 1": 1.25, "Wolbachia per cell robust z, rep 2": 0.174, "Wolbachia per cell robust z, rep 3": 0.269}
{"Gene": "Ublcp1", "dsRNA no.": 2, "Wolbachia per cell robust z, rep 1": 0.545, "Wolbachia per cell robust z, rep 2": -1.27, "Wolbachia per cell robust z, rep 3": 0.0961}
{"Gene": "Ublcp1", "dsRNA no.": 3, "Wolbachia per cell robust z, rep 1": -0.1, "Wolbachia per cell robust z, rep 2": 0.205, "Wolbachia per cell robust z, rep 3": 0.318}

Taken from above:
Under “Wolbachia per cell robust z, rep 1”, Ublcp1 #3 has -0.1
Value for mats #2 in “Wolbachia per cell robust z, rep 3”: -0.679
Value of mats #1 under “Wolbachia per cell robust z, rep 3”: 0.701
